15 compounds from paper PMC11350758, “Development of Xanthoangelol-Derived Compounds with Membrane-Disrupting Effects against Gram-Positive Bacteria” (Antibiotics, 2024) can be followed below.

Structures are written as SMILES.

For this data set, the system named is red blood cells. Briefly: Hemolysis assay. The format is cell-based, Sheep. Conditions: HC50/MICs of S. aureus ATCC43300. The procedure: All target derivatives were assessed for their in vitro antibacterial activities using a broth microdilution assay to test their minimum inhibitory concentrations (MICs) against six Gram-positive strains (S. aureus ATCC31007, S. aureus ATCC25923, S. aureus ATCC43300, E. faecalis ATCC29212, B. subtilis ATCC9372, and S. epidermidis ATCC12228) and four Gram-negative strains (A. baumannii ATCC19606, K. pneumonia ATCC10031, E. coli ATCC25922, and P. aeruginosa ATCC27853). These compounds were also evaluated for their hemolytic activities and membrane selectivity by determining their HC50 (the concentration required to lyse 50% of red blood cells) and SI (HC50/MICs) values, respectively, and vancomycin was used as the positive drug.
To further detect the hemolytic toxicity and therapeutic potential of these derivatives, we proceeded to examine the hemolytic activities and membrane selectivity of these derivatives. The HC50 value was defined as the concentration needed for a compound to lyse 50% of red blood cells, and it is often used to evaluate the hemolytic toxicity to eukaryotic cells. […] The selectivity index (SI) was calculated by HC50/MICs of S. aureus ATCC43300 and was used to assess the potency and safety of the compounds. […] Thus, compound 9h was selected as a representative molecule for the in-depth in vitro and in vivo studies.
Sheep blood was used to isolate red blood cells (RBCs), which were then resuspended in 1× PBS (5%). The compounds were dissolved in PBS to give an initial concentration of 5.12 mg/mL, compound solution (100 μL) was added to the first well of a 96-well plate, two-fold serial dilutions of compounds were prepared in 96-well plates, and then 150 μL of 5% RBC suspension was added to each well. This was followed by incubation at 37 °C for 1 h. After incubation, the plate was centrifuged (3500 rpm, 5 min), and 100 μL of supernatant solution from each well was carefully pipetted into a new plate. The absorbance values were measured at 540 nm. Erythrocyte hemolysis rate = (Absorbancecompound – Absorbance negative control)/(Absorbance1% Triton X-100 − Absorbance negative control) × 100%. All biological experiments were repeated three times.

`CC[N+](CC)(CC)CCCOc1c(C(C)=O)ccc2c1C=CC(C)(CCC=C(C)C)O2` (stereo not drawn) [Compound 5a, 3-((6-Acetyl-2-methyl-2-(4-methylpent-3-en-1-yl)-2H-chromen-5-yl)oxy)-N,N,N-triethylpropan-1-aminium] showed an SI of 8.9. The compound `CCNCCCOc1c(C(C)=O)ccc2c1C=CC(C)(CCC=C(C)C)O2` (stereo not drawn) [Compound 5b, 1-(5-(3-(Ethylamino)propoxy)-2-methyl-2-(4-methylpent-3-en-1-yl)-2H-chromen-6-yl)ethan-1-one] gave an SI of 7.4. Next, `CCN(CC)CCCOc1c(C(C)=O)ccc2c1C=CC(C)(CCC=C(C)C)O2` (stereo not drawn) [Compound 5c, 1-(5-(3-(Diethylamino)propoxy)-2-methyl-2-(4-methylpent-3-en-1-yl)-2H-chromen-6-yl)ethan-1-one]: 10.1; `CC(=O)c1ccc2c(c1OCCCN1CC(C)OC(C)C1)C=CC(C)(CCC=C(C)C)O2` (stereo not drawn) [Compound 5d, 1-(5-(3-(2,6-Dimethylmorpholino)propoxy)-2-methyl-2-(4-methylpent-3-en-1-yl)-2H-chromen-6-yl)ethan-1-one]: less than 5.8; `CC(=O)c1ccc2c(c1OCCCN1CCN(C(C)=O)CC1)C=CC(C)(CCC=C(C)C)O2` (stereo not drawn) [Compound 5e, 1-(4-(3-((6-Acetyl-2-methyl-2-(4-methylpent-3-en-1-yl)-2H-chromen-5-yl)oxy)propyl)piperazin-1-yl)ethan-1-one]: 0.49. As for `CC(=O)c1ccc2c(c1OCCCNCCN(C)C)C=CC(C)(CCC=C(C)C)O2` (stereo not drawn) [Compound 5f, 1-(5-(3-((2-(Dimethylamino)ethyl)amino)propoxy)-2-methyl-2-(4-methylpent-3-en-1-yl)-2H-chromen-6-yl)ethan-1-one], the SI came out at 16.0.

Compound `CC(=O)c1ccc2c(c1OCCCN(C)CC(C)(C)CN(C)C)C=CC(C)(CCC=C(C)C)O2` (stereo not drawn) [Compound 5g, 1-(5-(3-((3-(Dimethylamino)-2,2-dimethylpropyl)(methyl)amino)propoxy)-2-methyl-2-(4-methylpent-3-en-1-yl)-2H-chromen-6-yl)ethan-1-one] had an SI of 22.9.

`CC[N+](CC)(CC)CCCOc1c2c(c3c(c1C(C)=O)OC(C)(CCC=C(C)C)C=C3)OC(C)(CCC=C(C)C)C=C2` (stereo not drawn) [Compound 9a, 3-((6-Acetyl-2,8-dimethyl-2,8-bis(4-methylpent-3-en-1-yl)-2H,8H-pyrano[2,3-f]chromen-5-yl)oxy)-N,N,N-triethylpropan-1-aminium] returned an SI of 10.1. In turn, `CC(=O)c1c(OCCC[n+]2ccccc2)c2c(c3c1OC(C)(CCC=C(C)C)C=C3)OC(C)(CCC=C(C)C)C=C2` (stereo not drawn) [Compound 9b, 1-(3-((6-Acetyl-2,8-dimethyl-2,8-bis(4-methylpent-3-en-1-yl)-2H,8H-pyrano[2,3-f]chromen-5-yl)oxy)propyl)pyridin-1-ium] came in with an SI of 26.6. In turn, `CCN(CC)CCCOc1c2c(c3c(c1C(C)=O)OC(C)(CCC=C(C)C)C=C3)OC(C)(CCC=C(C)C)C=C2` (stereo not drawn) [Compound 9c, 1-(5-(3-(Diethylamino)propoxy)-2,8-dimethyl-2,8-bis(4-methylpent-3-en-1-yl)-2H,8H-pyrano[2,3-f]chromen-6-yl)ethan-1-one] yielded an SI of 46.9. Next, `CC(=O)c1c(OCCCN2CC(C)OC(C)C2)c2c(c3c1OC(C)(CCC=C(C)C)C=C3)OC(C)(CCC=C(C)C)C=C2` (stereo not drawn) [Compound 9d, 1-(5-(3-(2,6-Dimethylmorpholino)propoxy)-2,8-dimethyl-2,8-bis(4-methylpent-3-en-1-yl)-2H,8H-pyrano[2,3-f]chromen-6-yl)ethan-1-one]: greater than 10.

Take `CC(=O)c1c(OCCCSC(=N)N)c2c(c3c1OC(C)(CCC=C(C)C)C=C3)OC(C)(CCC=C(C)C)C=C2` (stereo not drawn) [Compound 9e, 2-(3-((6-Acetyl-2,8-dimethyl-2,8-bis(4-methylpent-3-en-1-yl)-2H,8H-pyrano[2,3-f]chromen-5-yl)oxy)propyl)isothiouronium]: the SI was greater than 20. Next, `CNCCN(C)CCCOc1c2c(c3c(c1C(C)=O)OC(C)(CCC=C(C)C)C=C3)OC(C)(CCC=C(C)C)C=C2` (stereo not drawn) [Compound 9f, 1-(2,8-Dimethyl-5-(3-(methyl(2-(methylamino)ethyl)amino)propoxy)-2,8-bis(4-methylpent-3-en-1-yl)-2H,8H-pyrano[2,3-f]chromen-6-yl)ethan-1-one]: 10.1; `CCN(CC)CCCNCCCOc1c2c(c3c(c1C(C)=O)OC(C)(CCC=C(C)C)C=C3)OC(C)(CCC=C(C)C)C=C2` (stereo not drawn) [Compound 9g, 1-(5-(3-((3-(Diethylamino)propyl)amino)propoxy)-2,8-dimethyl-2,8-bis(4-methylpent-3-en-1-yl)-2H,8H-pyrano[2,3-f]chromen-6-yl)ethan-1-one]: 8.7; `CC(=O)c1c(OCCCNCCCN2CCN(C)CC2)c2c(c3c1OC(C)(CCC=C(C)C)C=C3)OC(C)(CCC=C(C)C)C=C2` (stereo not drawn) [Compound 9h, 1-(2,8-Dimethyl-2,8-bis(4-methylpent-3-en-1-yl)-5-(3-((3-(4-methylpiperazin-1-yl)propyl)amino)propoxy)-2H,8H-pyrano [2,3-f]chromen-6-yl)ethan-1-one]: 49.0.
